From US11767303B2, “Compounds and methods for inhibiting viral replication and methods of treating and preventing flaviviral infections” (priority 2020, dated 2023)

By UniProt entry, the sequences of proteins in these tests, tags left out. Residues count along the entry.
UniProt P29990, 1476-1654 limits assumed: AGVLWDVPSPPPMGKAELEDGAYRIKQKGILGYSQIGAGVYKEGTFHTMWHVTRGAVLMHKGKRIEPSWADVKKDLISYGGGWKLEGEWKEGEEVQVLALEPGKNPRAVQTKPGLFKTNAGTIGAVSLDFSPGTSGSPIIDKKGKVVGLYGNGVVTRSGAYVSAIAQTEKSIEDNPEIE

Tests used:
DENV2 NS2B-NS3 protease = DENV2 NS2B-NS3 protease (Dengue virus type 2, UniProt P29990); experiment: Protease inhibition assay (FRET peptide substrate); format: biochemical, Dengue virus serotype 2; conditions: read-out: IC50-pro(DN2); Table 4, preliminary SAR
LogP = format: physicochemical
ZIKV = experiment: Viral titer reduction assay, ZIKV in A549 cells; format: cell-based, Zika virus; conditions: read-out: EC50-ZK, Table 4, preliminary SAR
DENV2 = experiment: Viral titer (plaque) reduction assay, DENV2 in A549 cells; format: cell-based, Dengue virus serotype 2; conditions: read-out: EC50-DN2, Table 4, preliminary SAR
Aqueous solubility = format: physicochemical

## CN1CCC(Oc2ccc(Cl)cc2C(=O)Nc2ccc3c(c2)S(=O)(=O)C=C3)CC1
DENV2 NS2B-NS3 protease
  IC50: 26 µM
LogP
  LogP: 2.62
ZIKV
  EC50: 2 µM
DENV2
  EC50: 0.8 µM
Aqueous solubility
  aqueous solubility: significantly improves the aqueous solubility
